Data published in the supplement of paper PMC12637763.
Where a chain is given by its changes, count along the chain named. Some of the results follow. Env chains of viruses from a treatment-interruption trial, translated from the printed DNA. IC50 / IC80 of two broadly neutralizing antibodies; lower = more sensitive virus; >50 µg/ml means not reached and <0.001 µg/ml is below the lowest dose. No active / inactive call.

B1: HIV-1 Env, rebound clone, antibody arm (protein)
chain: MRVREIRRNYLWRWGTLLLGILMMICSADNWWVTVYYGVPVWKEATTTLFCASDAKAYETEVHNVWATHACVPTDPNPQEVALENVTENFNMWKNNMVEQMQEDIISLWDQSLKPCVELTPLCVTLNCTNVNNTRTNSTISGPTAKPGEEEMKNCSFNITTGIRDKIKKEYALFYKLDVVPIDDSNTSYRLISCNTSVIKQACPKVSFEPIPIHYCAPAGFAILKCRDKQFNGTGPCRNVSTVQCTHGIKPVVTTQLLLNGSLAEEEVVIRSANFSDNAKIIIVQLNESVQINCTRPNNNTRKSIPIGPGRAFYATGDIIGDIRQAHCSISKTRWNNTLKLIREKLKTQFGDKTIVFNQSSGGDPEIVTHSFNCGGEFFYCNTTPLFNSTEGSNTTAENNTTDIITLQCRIKQIINMWQKVGKAMYAPPIRGNISCSSNITGLLLTRDGGNTTDNGSEIFRPGGGDMRDNWRSELYKYKVVKIEPIGLAPTKAKRRVVQREKRALGMGALFLGFLGAAGSTMGAASVTLTVQARQLLSGIVQQQNNLLRAIEAQQHLLQLTVWGIKQLQARVLAVESYLRDQQLLGIWGCSGKLICTTAVPWNISWSKSKSWNKTNLADIWENMTWMQWESEIDNYTNIIYQLIEESQNQQEKNEKDLLELDKWASLWNWFSISNWLWYIKLFIMIVGGLIGLRIIFSVLSIVNRVRQGYSPLSFQTRPPAARGHDRPEGIEEGGGDRDRDRSNQLVDGFLALIWVDLRSLCLFSYHRLRDFLLVVTRIVELLGRRGWEILKYWWNLLQYWSQELKNSAVSLLNATAIAVAEGTDRVIEIVQRAFRAIIHIPTRIRQGFERALV
B2: HIV-1 Env, rebound clone, antibody arm (protein)
chain: B1 chain with M23I, E484K, V854L
B3: HIV-1 Env, rebound clone, antibody arm (protein)
chain: B1 chain with S329N, W621R, V854L
B4: HIV-1 Env, rebound clone, antibody arm (protein)
chain: B1 chain with S329D, D771N, V854L
B5: HIV-1 Env, rebound clone, antibody arm (protein)
chain: B1 chain with S329D, V854L
B6: HIV-1 Env, rebound clone, antibody arm (protein)
chain: B1 chain with S329D

What follows are binders tested against antibody 10-1074 (assay: neutralization IC50; higher = virus less sensitive to the antibody).
Protocol: (§1)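 Pseudovirus bearing the Env chain mixed with antibody, from 50 µg/ml in fivefold dilutions, on TZM-bl reporter cells, in duplicate.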
With B1 the “neutralization IC50” value was over 50 mg/L. B2 was tested, and the “neutralization IC50” value was over 50 mg/L. B3 was tested, and the “neutralization IC50” value was 0.027 mg/L. For B4, the “neutralization IC50” value was over 50 mg/L. B5 was tested, and the “neutralization IC50” value was over 50 mg/L. B6 was tested, and the “neutralization IC50” value was over 50 mg/L.

The binders below were run against antibody 3BNC117 in the same assay as above.
Protocol: as §1
B1 was tested, and the “neutralization IC50” value was 0.136 mg/L. For B2, the “neutralization IC50” value was 0.302 mg/L. B3 was tested, and the “neutralization IC50” value was 0.146 mg/L. In the case of B4, the “neutralization IC50” value is reported as 0.434 mg/L. With B5 the “neutralization IC50” value was 0.197 mg/L. In the case of B6, the “neutralization IC50” value is reported as 0.174 mg/L.

The binders below were run against antibody 10-1074 (assay: neutralization IC80; higher = virus less sensitive to the antibody).
Protocol: as §1
For B1, the “neutralization IC80” value was over 50 mg/L. In the case of B2, the “neutralization IC80” value is reported as over 50 mg/L. B3 was tested, and the “neutralization IC80” value was 0.077 mg/L. B4 was tested, and the “neutralization IC80” value was over 50 mg/L. With B5 the “neutralization IC80” value was over 50 mg/L. With B6 the “neutralization IC80” value was over 50 mg/L.

These binders were tested against antibody 3BNC117 in the same assay as above.
Protocol: as §1
B1 was tested, and the “neutralization IC80” value was 0.627 mg/L. For B2, the “neutralization IC80” value was 0.964 mg/L. With B3 the “neutralization IC80” value was 0.687 mg/L. For B4, the “neutralization IC80” value was 1.34 mg/L. B5 was tested, and the “neutralization IC80” value was 0.939 mg/L. For B6, the “neutralization IC80” value was 0.514 mg/L.
